Measured values from several laboratories, pooled; numbers as filed in NIAID ChemDB.

All rows: target-level tests; agent: Hepatitis C virus; protein: HCV NS3 protease

ICn: concentration for n% inhibition. Conditions beyond the fields shown may differ between rows.

{"compound": "CC[C@H](C)[C@H](NC(=O)[C@H](CC(C)C)NC(=O)[C@@H](CCC(=O)O)NC(=O)[C@H](CCC(=O)O)NC(=O)CCC(=O)O)C(=O)N[C@@H](CC1CCCCC1)C(=O)N[C@@H](CS)C(=O)O", "endpoint": "Ki", "value": "0.028 µM"}
{"compound": "C=CC1C[C@]1(NC(=O)C1C[C@@H](Oc2cc(-c3ccccc3)nc3ccccc23)CN1C(=O)[C@@H](NC(=O)[C@@H](NC(=O)[C@@H](CCC(=O)O)NC(=O)[C@H](CC(=O)O)NC(C)=O)C1CCCCC1)C(C)(C)C)C(=O)O", "endpoint": "Ki", "value": "<0.01 µM"}
{"compound": "CSCC[C@H](NC(C)=O)C(=O)N[C@@H](CCC(=O)O)C(=O)N[C@@H](CCC(=O)O)C(=O)N[C@@H](CS)C(=O)O", "endpoint": "IC50", "value": "150 µM"}
{"compound": "CC(C)C[C@H](NC(=O)[C@H](O)c1ccccc1)C(=O)N[C@@H](CC(F)F)C(=O)C(=O)O", "endpoint": "IC50", "value": "3 µM"}
{"compound": "CC[C@H](C)[C@H](NC(=O)[C@H](CC(C)C)NC(=O)[C@@H](CCC(=O)O)NC(=O)[C@H](CCC(=O)O)NC(=O)CCC(=O)O)C(=O)N[C@@H](CC1CCCCC1)C(=O)NC1(C(=O)O)CC1", "endpoint": "Ki", "value": "0.091 µM"}
{"compound": "C=C(C)N[C@@H](CCC(=O)O)C(=O)N[C@@H](CC(=O)O)C(=O)N[C@H](C(=O)N[C@H](C(=O)N[C@@H](CC)C(=O)N[C@H](C=O)CCC)C(C)C)C(C)C", "endpoint": "IC50", "value": "12.4 µM"}
{"compound": "CC(C)C[C@H](NC(=O)[C@@H](NC(=O)[C@@H](NC(=O)[C@H](CC(=O)O)NC(=O)[C@@H](N)CCC(=O)O)C(C)C)C(C)C)C(=O)N[C@@H](CS)C(=O)N1Cc2ccccc2C[C@H]1C(=O)O", "endpoint": "Ki", "value": "120 µM"}
{"compound": "CCC[C@H](NC(=O)[C@@H]1CCCN1C(=O)[C@@H](NC(=O)[C@@H](NC(=O)[C@H](CC(=O)O)NC(=O)[C@H](CC(=O)O)NC(C)=O)[C@@H](C)CC)C(C)C)C(N)=O", "endpoint": "IC50", "value": "10 µM"}
{"compound": "CC[C@H](C)[C@H](NC(=O)[C@H](CC(C)C)NC(=O)[C@@H](CCC(=O)O)NC(=O)[C@H](CCC(=O)O)NC(=O)CCC(=O)O)C(=O)N[C@@H](CC1CCCCC1)C(=O)NC1(C(=O)C(F)(F)C(F)(F)F)CC1", "endpoint": "Ki", "value": "1.8 µM"}
{"compound": "C=CC[C@H](NC(=O)[C@@H]1C[C@@H](Cc2ccc(-c3ccccc3)cc2)c2c(Cl)nc(NCc3cccc(C(F)(F)F)c3)c(=O)n21)B1OC2CC3CC(C3(C)C)[C@@]2(C)O1", "endpoint": "IC50", "value": "0.06 µM"}
{"compound": "O=C(O)CN1C(=O)/C(=C/c2ccc(-c3ccccc3)cc2)SC1=S", "endpoint": "IC50", "value": "20 µM"}
{"compound": "CC[C@H](C)[C@H](NC(=O)[C@H](CC(C)C)NC(=O)[C@@H](CCC(=O)O)NC(=O)[C@H](CCC(=O)O)NC(=O)CCC(=O)O)C(=O)N[C@@H](CC1CCCCC1)C(=O)NC1(C(=O)c2nn[nH]n2)CC1", "endpoint": "Ki", "value": "1.9 µM"}
{"compound": "CC(C)C[C@H](NC(=O)[C@H](CCC(=O)O)NC(=O)OC(C)(C)C)C(=O)N[C@@H](CC(F)F)C(=O)C(=O)O", "endpoint": "Ki", "value": "18.5 µM"}
{"compound": "COc1ccc2c(O[C@@H]3C[C@@H](C(=O)NC4(C(=O)O)CC4)N(C(=O)[C@@H](NC(=O)[C@@H](NC(C)=O)C4CCCCC4)C(C)C)C3)ccnc2c1", "endpoint": "IC50", "value": "1.4 µM"}
{"compound": "C=C[C@@H]1CC1(NC(=O)[C@@H]1C[C@@H](Oc2ccnc3cc(OC)ccc23)CN1C(=O)[C@@H](NC(=O)[C@@H](NC(C)=O)C1CCCCC1)C(C)C)C(=O)O", "endpoint": "IC50", "value": "0.047 µM"}
{"compound": "CC(C)[C@H](NC(=O)[C@H](CCC(=O)O)NC(=O)[C@@H](N)CC(=O)O)C(=O)N[C@H](C(=O)N1CCC[C@H]1C(=O)N[C@@H](CCc1ccc(C(F)(F)F)cc1)B1O[C@@H]2C[C@@H]3C[C@H](C3(C)C)[C@]2(C)O1)C(C)C", "endpoint": "Ki", "value": "0.002 µM"}
{"compound": "CC[C@H](C)[C@H](NC(=O)[C@H](CC(C)C)NC(=O)[C@@H](CCC(=O)O)NC(=O)[C@H](CCC(=O)O)NC(=O)CCC(=O)O)C(=O)N[C@@H](CC1CCCCC1)C(=O)NC1(C(=O)C(=O)O)CC1", "endpoint": "Ki", "value": "0.098 µM"}
{"compound": "C[C@H](NC(=O)OC(C)(C)C)C(=O)C1CCC[C@H]1C(=O)NC1(C(=O)O)CC1", "endpoint": "IC50", "value": ">1000 µM"}
{"compound": "CC(=O)N[C@@H](CC(=O)O)C(=O)N[C@@H](CCC(=O)O)C(=O)N[C@H](C(=O)N[C@@H](CCC(=O)O)C(=O)N[C@@H](CC1CCCCC1)C(=O)NC(CC(F)F)C(=O)C(=O)O)C(c1ccccc1)c1ccccc1", "endpoint": "Ki", "value": "0.004 µM"}
{"compound": "CC[C@H](C)[C@H](NC(=O)[C@H](CC(C)C)NC(=O)[C@@H](CCC(=O)O)NC(=O)CCC(=O)O)C(=O)N[C@@H](CC1CCCCC1)C(=O)NC1(C(=O)c2nn[nH]n2)CC1", "endpoint": "Ki", "value": "13 µM"}
{"compound": "COc1ccc2c(O[C@@H]3C[C@H]4C(=O)N[C@]5(C(=O)O)C[C@H]5/C=C\\CCCCC[C@H](NC(=O)OC(C)(C)C)C(=O)N4C3)cc(-c3ccccc3)nc2c1", "endpoint": "IC50", "value": "0.011 µM"}
{"compound": "CC[C@H](C)[C@H](NC(=O)[C@H](CC(C)C)NC(=O)[C@@H](CCC(=O)O)NC(=O)CCC(=O)O)C(=O)N[C@@H](CC1CCCCC1)C(=O)NC1(C(=O)O)CC1", "endpoint": "Ki", "value": "1.8 µM"}
{"compound": "COc1ccc2c(O[C@@H]3C[C@@H]4C(=O)CC5(C(=O)O)CC5CCCCCCC[C@H](NC(C)=O)C(=O)N4C3)cc(-c3csc(NC(C)=O)n3)nc2c1", "endpoint": "IC50", "value": "0.011 µM"}
{"compound": "CCCC(NC(=O)[C@@H]1CCCN1C(=O)[C@@H](NC(=O)[C@@H](NC(=O)[C@H](CC(=O)O)NC(=O)[C@H](CC(=O)O)NC(C)=O)[C@@H](C)CC)C(C)C)C(=O)NCc1ccccc1", "endpoint": "IC50", "value": "2 µM"}
{"compound": "CSCC[C@H](NC(=O)[C@H](CCC(=O)O)NC(=O)[C@@H](CC(=O)O)NC(C)=O)C(=O)N[C@@H](CCC(=O)O)C(=O)N[C@@H](CCC(=O)O)C(=O)N[C@@H](CS)C(=O)O", "endpoint": "IC50", "value": "1 µM"}

The first 3 rows once more:

{"compound": "CC[C@H](C)[C@H](NC(=O)[C@H](CC(C)C)NC(=O)[C@@H](CCC(=O)O)NC(=O)[C@H](CCC(=O)O)NC(=O)CCC(=O)O)C(=O)N[C@@H](CC1CCCCC1)C(=O)N[C@@H](CS)C(=O)O", "endpoint": "Ki", "value": "0.028 µM"}
{"compound": "C=CC1C[C@]1(NC(=O)C1C[C@@H](Oc2cc(-c3ccccc3)nc3ccccc23)CN1C(=O)[C@@H](NC(=O)[C@@H](NC(=O)[C@@H](CCC(=O)O)NC(=O)[C@H](CC(=O)O)NC(C)=O)C1CCCCC1)C(C)(C)C)C(=O)O", "endpoint": "Ki", "value": "<0.01 µM"}
{"compound": "CSCC[C@H](NC(C)=O)C(=O)N[C@@H](CCC(=O)O)C(=O)N[C@@H](CCC(=O)O)C(=O)N[C@@H](CS)C(=O)O", "endpoint": "IC50", "value": "150 µM"}